Compound potency records, mixed from different reports. Data source: NIAID ChemDB in PubChem.

Common to all: whole-cell or culture tests; agent: Aspergillus flavus

An empty or dashed field is not shown. Two numbers with a dash give a range or band. A number after MIC or MFC names an inhibition level or a share of isolates. Neighbouring rows are from separate reports.

compound,read-out,strain or isolate,setting,read by,value
CCOc1ccc2c(C(=O)N3NC(=NC)SC=C3c3c(O)c4ccccc4oc3=O)cc(=O)oc2c1,MIC50,-,-,broth dilution,1 µg/mL
C[C@@H](c1ncncc1F)[C@](O)(Cn1cncn1)c1ccc(F)cc1F,MIC,25,-,broth dilution,1 µg/mL
Clc1ccc(C(c2ccccc2)N2CCN(CCn3ccnc3)CC2)cc1,MFC,-,-,broth dilution,>256 µg/mL
CCc1c(OC)ccc2sc(C)nc12,MIC,KCCM 11899,-,broth dilution,>100 µg/mL
CC(C)=CCCC(C)CCO,MIC,TISTR 3041,-,broth dilution,3600 µg/mL
c1ccc(C(c2ccccc2)n2cncn2)cc1,MFC,-,-,broth dilution,64 µg/mL
COc1ccc(-c2n[nH]c(COc3nc(C(F)(F)F)nc4ccccc34)n2)cc1,MIC100,MTCC 277,-,-,25 µg/mL
O=C(CN1CCOCC1)Nc1nc(-c2ccccc2)cc(-c2ccc(F)cc2)n1,MIC,-,-,-,6.25 µg/mL
Cc1cc(=O)n(-c2ccc(N=Nc3c(-c4c(O)c5ccccc5n(C)c4=O)[nH][nH]c3=O)cc2)n1C,MIC,ATCC 28542,-,-,>100 µg/mL
CCOC(=O)C1/C(=N/Nc2ccc([N+](=O)[O-])cc2[N+](=O)[O-])C=C(c2ccc3ccccc3c2)CC1c1ccc(OC)cc1,MIC,Clinical isolates,-,-,25 µg/mL
O=c1[nH][nH]c2c1C(c1ccccc1)CC(Cc1ccc3ccccc3c1)=C2,MIC,-,-,agar diffusion,100 µg/mL
c1ccc(C(c2ccccc2)n2nnc3ccccc32)cc1,MFC,-,-,broth dilution,>256 µg/mL
COC(=O)Cc1csc(NC(=O)Cc2cccc(C)c2)n1,MIC,NCIM 524,-,-,12.5 µg/mL
COC(=O)c1c(N)oc2ccc(O)cc12,MIC,KCCM 11899,-,broth dilution,25 µg/mL
O=C(Cc1cc(=O)oc2cc(O)ccc12)N1NC(=Nc2ccccc2)SC=C1c1cc2ccccc2oc1=O,MIC50,-,-,broth dilution,0.1 µg/mL
CCCCCCCCOC(=O)[C@]1(O)C[C@@H](O)[C@@H](O)[C@H](OC(=O)/C=C/c2ccc(O)c(O)c2)C1,MIC,AMP 9,-,-,500 µg/mL
COc1cc(/C=C/C(C)=O)ccc1O,MFC,MTCC 277,-,broth dilution,1041 µM
Cc1cc(=O)oc2cc(OCC(O)Cn3nnc4ccccc43)cc(OCC(O)Cn3nnc4ccccc43)c12,MIC,-,-,-,256 µg/mL
N=C(N)c1ccc(OCCCCCCOc2ccc(C(=N)N)cc2)cc1,MIC,-,-,agar diffusion / agar,19 µg/mL
COc1cc(O)c(C(=O)O[C@@H]2C[C@]3(C)[C@H]4[C@@H](O)C(C)(C)C[C@@]4(O)C=C(C=O)[C@]23O)c(C)c1Cl,MIC,Plpa59,-,broth dilution,>250 µg/mL
O=C(c1ccccc1)C(c1ccccc1)n1nnc2ccccc21,MFC,-,-,broth dilution,256 µg/mL
Cc1cc(=O)oc2c(C=Nc3cccc4cccc(N=Cc5c(O)ccc6c(C)cc(=O)oc56)c34)c(O)ccc12,MIC,MTCC 1883,-,-,10 µg/mL
CCOC(=O)c1c(N)oc2c(C)cc(O)c(C)c12,MIC,KCCM 11899,-,broth dilution,25 µg/mL
O=C(c1ccccc1)C(c1ccccc1)n1ccnc1,MFC,-,-,broth dilution,128 µg/mL
CC(C)C[C@H](N)C(=O)O,MFC100,MRCM 24832,-,broth dilution,>18000 µg/mL
CCOC(=O)c1c(N)oc2ccc(O)cc12,MIC,KCCM 11899,-,broth dilution,25 µg/mL
Oc1ccc(-c2n[nH]c(COc3ncnc4ccccc34)n2)cc1,MIC100,MTCC 277,-,-,50 µg/mL
O=c1c(N2CCOCC2)c(N2CCN(S(=O)(=O)Cc3ccccc3)CC2)cnn1-c1ccccc1,MIC,ND83,-,broth dilution,3.13 µg/mL
OC(Cn1cncn1)(Cn1cncn1)c1ccc(F)cc1F,MIC,-,-,-,0.097 µg/mL
C[C@H]1[C@H](O)[C@@H](C)/C=C/C=C/C=C/C=C/C=C/C=C/C=C/[C@H](O[C@@H]2O[C@H](C)[C@@H](O)[C@H](N)[C@@H]2O)C[C@@H]2O[C@](O)(C[C@@H](O)C[C@@H](O)CC[C@H](O)[C@@H](O)C[C@@H](O)CC(=O)O[C@H]1C)C[C@H](O)[C@H]2C(=O)O,MIC99,NCIM 519,-,broth dilution / absorbance,0.78 µM
CC(C)CC1NC(=O)CC(CCCCCCCCC(C)O)OC(=O)C(CC(C)C)NC(=O)C(CC(C)C)NC(=O)C(CC(C)C)NC(=O)C(C(C)C)NC(=O)C(CC(=O)O)NC(=O)C(CC(C)C)NC1=O,MIC,ATCC 11496,-,absorbance,8 µg/mL
c1ccc(C(c2ccccc2)n2cnc3ccccc32)cc1,MFC,-,-,broth dilution,>256 µg/mL
CC(C)(C)OC(=O)N1CCC(n2cc(-c3nc(-c4ccccc4)n[nH]3)nn2)CC1,MIC,-,-,agar,120 µg/mL
C=C1CO[C@H]2[C@@H](C)OC(OC[C@@]34C[C@H]5[C@H](C)CC[C@@H]5[C@@]5(C=O)C[C@@H]3C=C(C(C)C)[C@@]45C(=O)O)C[C@@H]12,MIC,-,-,-,2–8 µg/mL
CN1CCC(n2cc(-c3nc(-c4ccc(Cl)cc4)n[nH]3)nn2)CC1,MIC,-,-,agar,30 µg/mL
C[C@@H]1C/C=C/C=C/C=C/C=C/[C@H](OC2O[C@H](C)[C@@H](O)[C@H](N)[C@@H]2O)CC2O[C@](O)(C[C@@H](O)C[C@H]3O[C@@H]3/C=C/C(=O)O1)C[C@H](O)[C@H]2C(=O)O,MIC90,Species complex,-,-,32 µg/mL
Cc1nc2c(s1)C(=O)C(Nc1ccc(F)cc1)=C(Cl)C2=O,MIC,KCCM 11899,-,broth dilution,1.6 µg/mL
COc1ccc(C(c2ccc(OC)cc2)n2ccnc2)cc1,MFC,-,-,broth dilution,>256 µg/mL
CCOC(=O)C1/C(=N/Nc2ccc([N+](=O)[O-])cc2[N+](=O)[O-])C=C(c2ccc3ccccc3c2)CC1c1ccc(C)cc1,MIC,Clinical isolates,-,-,25 µg/mL
COc1ccc(-c2nc3c(CN)c(-c4ccc(C)o4)c(CN)c(=O)n3[nH]2)cc1,MIC,-,-,-,3.125 µg/mL
CN1CCC(n2cc(-c3nc(-c4ccccc4)n[nH]3)nn2)CC1,MIC,-,-,agar,30 µg/mL
COc1cccc(CC(=O)Nc2nc(-c3cccc(Cl)c3)cs2)c1,MIC,NCIM 524,-,-,6.25 µg/mL
Cc1ccc(-c2c(CN)c(=O)n3[nH]c(-c4c(O)c(O)c(O)c(O)c4CO)nc3c2CN)o1,MIC,-,-,-,100 µg/mL
CCC(=O)N1CCC(n2cc(-c3nc(-c4ccc(C)cc4)n[nH]3)nn2)CC1,MIC,-,-,agar,180 µg/mL
COc1cccc(CC(=O)Nc2nc(C)cs2)c1,MIC,NCIM 524,-,-,12.5 µg/mL
FC(F)(F)c1nc(OCc2nc(-c3ccco3)n[nH]2)c2ccccc2n1,MIC100,MTCC 277,-,-,12.5 µg/mL
C[C@H]1[C@H](O)[C@@H](C)/C=C/C=C/C=C/C=C/C=C/C=C/C=C/[C@H](O[C@@H]2O[C@H](C)[C@@H](O)[C@H](N)[C@@H]2O)C[C@@H]2O[C@](O)(C[C@@H](O)C[C@@H](O)CC[C@H](O)[C@@H](O)C[C@@H](O)CC(=O)O[C@H]1C)C[C@H](O)[C@H]2C(=O)O,MIC,64025,-,broth dilution,0.5 µg/mL
C[C@H]1[C@H](O)[C@@H](C)/C=C/C=C/C=C/C=C/C=C/C=C/C=C/[C@H](O[C@@H]2O[C@H](C)[C@@H](O)[C@H](N)[C@@H]2O)C[C@@H]2O[C@](O)(C[C@@H](O)C[C@@H](O)CC[C@H](O)[C@@H](O)C[C@@H](O)CC(=O)O[C@H]1C)C[C@H](O)[C@H]2C(=O)O,MIC,ATCC 28542,-,-,>100 µg/mL
Clc1ccc(C(c2ccccc2)n2cnc3ccccc32)cc1,MFC,-,-,broth dilution,>256 µg/mL
Cc1ccc(CC(=O)Nc2nc(C)cs2)cc1,MIC,NCIM 902,-,-,12.5 µg/mL
C[C@H]1[C@H](O)[C@@H](C)/C=C/C=C/C=C/C=C/C=C/C=C/C=C/[C@H](O[C@@H]2O[C@H](C)[C@@H](O)[C@H](N)[C@@H]2O)C[C@@H]2O[C@](O)(C[C@@H](O)C[C@@H](O)CC[C@H](O)[C@@H](O)C[C@@H](O)CC(=O)O[C@H]1C)C[C@H](O)[C@H]2C(=O)O,MIC90,-,-,agar,96 µg/mL
Cc1nc2c(s1)C(=O)C(Nc1ccc(Br)cc1)=C(Cl)C2=O,MIC,KCCM 11899,-,broth dilution,12.5 µg/mL
CC(C)CC(O)C(=O)O,MFC100,ATCC 204304,-,broth dilution / visual reading,>72000 µg/mL
Nc1[nH]c(=O)ncc1F,MIC,-,-,broth dilution,6.3 µg/mL
CCCC[C@@H](C)/C=C(C)/C=C(\C)C(=O)N/C(=C/[C@@](C)(O)/C=C/C=C/C=C/C(=O)NC1=C(O)CCC1=O)C(=O)[C@@H]1CO1,MIC,2,-,broth dilution,200 µM
Cc1cc(O)cc(O)c1C(=O)O[C@@H]1C[C@]2(C)[C@H]3[C@@H](O)C(C)(C)C[C@@]3(O)C=C(C=O)[C@]12O,MIC,Plpa59,-,broth dilution,>250 µg/mL
CC(C)Cc1ccc(CC2=Cc3[nH][nH]c(=O)c3C(c3ccc(Cl)cc3)C2)cc1,MIC,-,-,agar diffusion,50 µg/mL
C[C@@H](c1ncncc1F)[C@](O)(Cn1cncn1)c1ccc(F)cc1F,MIC50,-,-,broth dilution,2 µg/mL
CN=C1NN(C(=O)Cc2cc(=O)oc3cc(O)ccc23)C(c2c(O)c3ccccc3oc2=O)=CS1,MIC50,-,-,broth dilution,0.1 µg/mL
Cc1ccc(C2CC(Cc3ccc4ccccc4c3)=Cc3[nH][nH]c(=O)c32)cc1,MIC,-,-,agar diffusion,50 µg/mL
Cn1c(=O)c(-c2[nH][nH]c(=O)c2C=Nc2cccnc2)c(O)c2ccccc21,MIC,ATCC 28542,-,-,25 µg/mL
CC(C)Cc1ccc(CC2=Cc3[nH][nH]c(=O)c3C(c3ccc(Br)cc3)C2)cc1,MIC,-,-,agar diffusion,50 µg/mL
COc1ccc(-c2n[nH]c(COc3ncnc4ccccc34)n2)cc1OC,MIC100,MTCC 277,-,-,12.5 µg/mL
Cc1nc2c(s1)C(=O)C(Nc1ccc(Cl)cc1)=C(Cl)C2=O,MIC,KCCM 11899,-,broth dilution,50 µg/mL
FC(F)(F)c1nc(OCc2nc(-c3ccc(Cl)cc3)n[nH]2)c2ccccc2n1,MIC100,MTCC 277,-,-,25 µg/mL
Cc1cc(=O)oc2cc(OCC(O)Cn3cncn3)cc(OCC(O)Cn3cncn3)c12,MIC,-,-,-,32 µg/mL
CCOC(=O)c1c(N)oc2c1cc(O)c1sc(C)nc12,MIC,KCCM 11899,-,broth dilution,50 µg/mL
CN1C(=O)/C(=c2/[nH][nH]c(=O)/c2=C\c2ccccc2)C(=O)c2ccccc21,MIC,ATCC 28542,-,-,50 µg/mL
CN=C1NN(C(=O)Cc2cc(=O)oc3cc(O)ccc23)C(c2cc3ccccc3oc2=O)=CS1,MIC50,-,-,broth dilution,1 µg/mL
CCOC(=O)C1/C(=N/Nc2ccc([N+](=O)[O-])cc2[N+](=O)[O-])C=C(c2ccc3ccccc3c2)CC1c1ccc(Cl)cc1,MIC,Clinical isolates,-,-,12.5 µg/mL
Cc1csc(NC(=O)Cc2ccccc2)n1,MIC,NCIM 524,-,-,6.25 µg/mL
Nc1ncccc1-c1cc(Cc2ccc(COc3ccccn3)cc2)no1,MIC50,IFM50915,90% human serum,broth dilution,1 µg/mL
Cc1ccc(NC2=C(Cl)C(=O)c3nc(C)sc3C2=O)cc1,MIC,KCCM 11899,-,broth dilution,12.5 µg/mL
Cn1c(=O)c(-c2[nH][nH]c(=O)c2N=Nc2cccc(Br)c2)c(O)c2ccccc21,MIC,ATCC 28542,-,-,25 µg/mL
Cc1nc(OCc2nc(-c3ccccc3)n[nH]2)c2ccccc2n1,MIC100,MTCC 277,-,-,25 µg/mL

Again, the opening 7 rows:

{"compound": "CCOc1ccc2c(C(=O)N3NC(=NC)SC=C3c3c(O)c4ccccc4oc3=O)cc(=O)oc2c1", "read-out": "MIC50", "read by": "broth dilution", "value": "1 µg/mL"}
{"compound": "C[C@@H](c1ncncc1F)[C@](O)(Cn1cncn1)c1ccc(F)cc1F", "read-out": "MIC", "strain or isolate": "25", "read by": "broth dilution", "value": "1 µg/mL"}
{"compound": "Clc1ccc(C(c2ccccc2)N2CCN(CCn3ccnc3)CC2)cc1", "read-out": "MFC", "read by": "broth dilution", "value": ">256 µg/mL"}
{"compound": "CCc1c(OC)ccc2sc(C)nc12", "read-out": "MIC", "strain or isolate": "KCCM 11899", "read by": "broth dilution", "value": ">100 µg/mL"}
{"compound": "CC(C)=CCCC(C)CCO", "read-out": "MIC", "strain or isolate": "TISTR 3041", "read by": "broth dilution", "value": "3600 µg/mL"}
{"compound": "c1ccc(C(c2ccccc2)n2cncn2)cc1", "read-out": "MFC", "read by": "broth dilution", "value": "64 µg/mL"}
{"compound": "COc1ccc(-c2n[nH]c(COc3nc(C(F)(F)F)nc4ccccc34)n2)cc1", "read-out": "MIC100", "strain or isolate": "MTCC 277", "value": "25 µg/mL"}